Compound potency records, mixed from different reports. Data source: NIAID ChemDB in PubChem.

Shared fields: tests on isolated targets

Blank or dashed fields: not listed here. Rows are shuffled and stem from different studies. ICn: concentration for n% inhibition. Percent inhibition refers to the dose given; in toxicity tests it is the harm to the cells.

SMILES	method	endpoint	protein	strain	agent	dose	value
COc1c(N2CCN(C(=O)C3COc4ccccc4O3)CC2)c(F)c([N+](=O)[O-])c2c(=O)c(C(=O)O)cn(C3CC3)c12	gel	IC50	DNA gyrase	ATCC 14468	Mycobacterium smegmatis	-	>50 µM
Cc1cn(C/C=C\CN2C(=O)c3cccc4cccc(c34)C2=O)c(=O)[nH]c1=O	absorbance	Ki	Thymidine monophosphate kinase	-	Mycobacterium tuberculosis	-	1.9 µM
Cc1cc(=O)n([C@@H]2O[C@H](CO)C3CC(=O)OC32)c(=O)[nH]1	-	Ki	Thymidine monophosphate kinase	-	Mycobacterium tuberculosis	-	27 µM
CCCCCCCCO[C@H]1O[C@H](CO[C@H]2O[C@H](CNC(=O)C(C)(C)C)[C@@H](O)[C@@H]2O)[C@@H](O)[C@@H]1O	-	IC50	Arabinofuranosyltransferase	H37Ra	Mycobacterium tuberculosis	-	2490 µM
Nc1ncnc2c1ncn2[C@@H]1O[C@H](COP(=O)(O)OP(=O)([O-])OC[C@H]2O[C@@H](N3C=CC4C(=C3)C(=O)NC4(O)c3ccncc3)[C@H](O)[C@@H]2O)[C@@H](O)[C@H]1OP(=O)(O)O	-	Ki	Dihydrofolate reductase	-	Mycobacterium tuberculosis	-	0.001 µM
C[C@]1(Cn2ccnn2)[C@H](C(=O)O)N2C(=O)C[C@H]2S1(=O)=O	-	IC50	Beta-lactamase	TB3	Mycobacterium tuberculosis	-	1 µg/mL
Nc1nc(N)c2cc(COC(=O)c3ccccc3Cc3ccccc3)ccc2n1	-	IC50	Dihydrofolate reductase	-	Mycobacterium avium	-	0.36 µM
COc1c(N2CCN(Cn3c(O)c(N=NC(N)=O)c4cc(C)ccc43)C(C)C2)c(F)cc2c(=O)c(C(=O)O)cn(C3CC3)c12	-	IC50	Gyrase	-	Mycobacterium tuberculosis	-	4.5 µM
Cc1cn([C@@H]2O[C@H](CO)[C@@H](CN=[N+]=[N-])[C@H]2O)c(=O)[nH]c1=O	-	Ki	Thymidine monophosphate kinase	-	Mycobacterium tuberculosis	-	>1000 µM
Nc1nc(N)c2cc(COC(=O)c3ccoc3)ccc2n1	-	IC50	Dihydrofolate reductase	-	Mycobacterium avium	-	0.1 µM
Cc1cc(=O)n([C@@H]2O[C@H](C)C3CNC(=S)OC32)c(=O)[nH]1	-	Ki	Thymidine monophosphate kinase	-	Mycobacterium tuberculosis	-	2.3 µM
CCCCCCCCO[C@H]1O[C@H](CO[C@H]2O[C@H](CNC(=O)c3ccccc3)[C@@H](O)[C@@H]2O)[C@@H](O)[C@@H]1O	-	IC50	Arabinofuranosyltransferase	H37Ra	Mycobacterium tuberculosis	-	2250 µM
O=c1[nH]c(=O)n([C@H]2C[C@H](O)[C@@H](CCc3nn[nH]n3)O2)cc1CO	binding / absorbance	Ki	TMPKmt	-	Mycobacterium tuberculosis	-	>2400 µM
Cc1cn([C@@H]2O[C@H](CO)[C@H]3CNC(=S)O[C@H]32)c(=O)[nH]c1=O	-	Ki	Thymidine monophosphate kinase	H37Rv	Mycobacterium tuberculosis	-	3.5 µM
CC(C)[C@H]1CO[C@]23CCN(Cc4ccc(Cl)c(Cl)c4)C[C@H]2CCC(=O)N13	resazurin	IC50	NADH dehydrogenase	-	Mycobacterium tuberculosis	-	<0.1 µM
Cc1cn(C/C=C\CN2C(=O)c3cccc4cccc(c34)C2CO)c(=O)[nH]c1=O	absorbance	Ki	Thymidine monophosphate kinase	-	Mycobacterium tuberculosis	-	6.2 µM
Nc1nc(N)c2cc(COC(=O)c3cc4ccccc4c4ccccc34)ccc2n1	-	IC50	Dihydrofolate reductase	-	Mycobacterium avium	-	1 µM
COc1c(N2CCN(Cn3c(O)c(N=NC(N)=S)c4ccccc43)C(C)C2)c(F)cc2c(=O)c(C(=O)O)cn(C3CC3)c12	-	IC50	Gyrase	-	Mycobacterium tuberculosis	-	5 µM
Nc1nc(N)c2cc(COC(=O)c3cccs3)ccc2n1	-	IC50	Dihydrofolate reductase	-	Mycobacterium avium	-	0.053 µM
CC(=O)c1c(C)c2cnc(Nc3ccc(N4CCN(C)CC4)cc3)nc2n(C2CCCC2)c1=O	kinase activity / radiometric	IC50	Protein kinase B	-	Mycobacterium tuberculosis	-	0.688 µM
Nc1nc(N)c2cc(COC(=O)C(c3ccccc3)c3ccccc3)ccc2n1	-	IC50	Dihydrofolate reductase	-	Mycobacterium avium	-	3.6 µM
O=C1CN(Cc2ccc3ccccc3c2)S(=O)(=O)c2ccccc21	-	IC50	N-acetyltransferase	-	Mycobacterium smegmatis	-	>100 µM
O=C1NC(=O)C2C(N1)N(C[C@H](O)[C@H](O)[C@H](O)CO)C(=O)N2CCCCC(F)(F)P(=O)(O)O	-	Ki	Lumazine synthase	-	Mycobacterium tuberculosis	-	60 µM
CO[C@H]1/C=C/O[C@@]2(C)Oc3c(C)c(O)c4c(=O)c(c5oc6cc(N7CCN(CC(C)C)CC7)cc(=O)c6nc5c4c3=C2O)NC(=O)/C(C)=C\C=C\[C@H](C)[C@H](O)[C@@H](C)[C@@H](O)[C@@H](C)[C@H](OC(C)=O)[C@@H]1C	-	inhibition	RNA polymerase	N-265	Mycobacterium avium	0.5 µg/mL	58%
O=C1CC[C@@H]2CN(Cc3ccccc3)CC[C@@]23N[C@H]2CCCC[C@@H]2N13	resazurin	IC50	NADH dehydrogenase	-	Mycobacterium tuberculosis	-	>1 µM
O=C(O)c1cnccn1	-	IC50	Fatty acid synthase I	-	Mycobacterium smegmatis	-	>600 µg/mL
Cc1cn(C/C=C\CN2C(=O)c3cccc4cccc(c34)C2O)c(=O)[nH]c1=O	absorbance	Ki	Thymidine monophosphate kinase	-	Mycobacterium tuberculosis	-	4.7 µM
Nc1nc(N)c2cc(COC(=O)c3cccc(-c4ccccc4)c3)ccc2n1	-	IC50	Dihydrofolate reductase	-	Mycobacterium avium	-	0.056 µM
COc1c(N2CCN(CN3C(=O)C(=Nc4ccc(S(=O)(=O)Nc5ncccn5)cc4)c4cc(F)ccc43)C(C)C2)c(F)cc2c(=O)c(C(=O)O)cn(C3CC3)c12	-	IC50	Gyrase	-	Mycobacterium tuberculosis	-	6 µM
Cc1cn([C@@H]2C[C@H](O)[C@@H](CNC(=S)Nc3ccc(Cl)c(C(F)(F)F)c3)O2)c(=O)[nH]c1=O	absorbance	Ki	TMPK	-	Mycobacterium tuberculosis	-	2.3 µM
COC1=C(Br)[C@@H](O)[C@]2(C=C1Br)CC(C(=O)NCCc1cnc(N)[nH]1)=NO2	-	IC50	MYCOTHIOL-S-CONJUGATE AMIDASE	-	Mycobacterium tuberculosis	-	100 µM
COc1c(N2CCN(CN3C(=O)C(=Nc4ccc(S(=O)(=O)Nc5ncccn5)cc4)c4cc(Cl)ccc43)C(C)C2)c(F)cc2c(=O)c(C(=O)O)cn(C3CC3)c12	-	IC50	Gyrase	-	Mycobacterium tuberculosis	-	6 µM
O=C(O)[C@H]1/C(=C/CO)O[C@@H]2CC(=O)N21	-	IC50	Beta-lactamase	TB3	Mycobacterium tuberculosis	-	0.05 µg/mL
COc1cccc(OC)c1-c1cccc(C(=O)OCc2ccc3nc(N)nc(N)c3c2)c1	-	IC50	Dihydrofolate reductase	-	Mycobacterium avium	-	0.59 µM
Cc1cn(C/C=C\CN2Cc3cccc4cccc(c34)C2=O)c(=O)[nH]c1=O	absorbance	Ki	Thymidine monophosphate kinase	-	Mycobacterium tuberculosis	-	1.4 µM
OC[C@@H]1NC[C@H](O)[C@H]1O	-	IC50	Arabinofuranosyltransferase	-	Mycobacterium tuberculosis	-	>4000 µM
COc1cc(C(=O)NS(=O)(=O)c2ccccc2C)ccc1Cc1cn(C)c2ccc(NC(=O)OC3CCCC3)cc12	binding	IC50	Lsr2	-	Mycobacterium tuberculosis	-	64.55 µM
CCC(CC)(P(=O)(O)O)P(=O)(O)CC/C=C(\C)CCC=C(C)C	-	IC50	Z-farnesyl diphosphate synthase	H37Rv	Mycobacterium tuberculosis	-	400 µM
CC(C)c1c(O)ccc2c1CCC1C(C)(C)CCC[C@]21C	-	inhibition	GTPase	-	Mycobacterium tuberculosis	10 µM	24%
CC(C)[C@H]1CO[C@]23CCN(Cc4ccc(Cl)cc4)C[C@H]2CCC(=O)N13	resazurin	IC50	NADH dehydrogenase	-	Mycobacterium tuberculosis	-	<0.1 µM
Cn1c(-c2cccc(N)c2)c(I)c2cc(C(=O)O)c(O)cc21	absorbance	IC50	mPTPB	-	Mycobacterium tuberculosis	-	19 µM
NNC(=O)c1ccncc1	-	Ki	Catalase-peroxidase	-	Mycobacterium tuberculosis	-	4.3 µM
NNC(=O)c1ccncc1	-	inhibition	Citrate synthase	H37Rv	Mycobacterium tuberculosis	1000 µM	0%
COc1c(N2CCN(Cn3c(O)c(N=NC(=O)c4ccncc4)c4cc(C)ccc43)C(C)C2)c(F)cc2c(=O)c(C(=O)O)cn(C3CC3)c12	-	IC50	Gyrase	-	Mycobacterium tuberculosis	-	5.5 µM
NCCCOc1ccc(Nc2ncc3ccc(=O)n(C4CCCC4)c3n2)cc1	kinase activity / radiometric	inhibition	Protein kinase B	-	Mycobacterium tuberculosis	10 µM	94.2%
O=C(O)[C@]1(O)C=C(c2cccc(C(F)(F)F)c2)[C@@H](O)[C@H](O)C1	-	Ki	Type II dehydroquinase	-	Mycobacterium tuberculosis	-	95 µM
OC[C@@H](O)[C@H]1NC[C@H](O)[C@H]1O	-	IC50	Arabinofuranosyltransferase	-	Mycobacterium tuberculosis	-	>4000 µM
O=C1NC(=O)C2C(N1)N(C[C@H](O)[C@H](O)[C@H](O)CO)C(=O)N2CCCCOP(=O)(O)O	-	Ki	Lumazine synthase	-	Mycobacterium tuberculosis	-	4.1 µM
NC(=O)c1c(NC(=O)Nc2ccc3c(c2)OCO3)sc2c(Cl)c(O)ccc12	absorbance	inhibition	Alcohol dehydrogenase (ADH)	-	Mycobacterium tuberculosis	100 µM	85%
Cc1cc(=O)n([C@@H]2O[C@H](CO)C3CNC(=O)OC32)c(=O)[nH]1	-	Ki	Thymidine monophosphate kinase	-	Mycobacterium tuberculosis	-	13.5 µM

For reference, 5 entries again:

SMILES | method | endpoint | protein | strain | agent | dose | value
COc1c(N2CCN(Cn3c(O)c(N=NC(N)=O)c4cc(C)ccc43)C(C)C2)c(F)cc2c(=O)c(C(=O)O)cn(C3CC3)c12 | - | IC50 | Gyrase | - | Mycobacterium tuberculosis | - | 4.5 µM
O=C(O)c1cnccn1 | - | IC50 | Fatty acid synthase I | - | Mycobacterium smegmatis | - | >600 µg/mL
O=C1CN(Cc2ccc3ccccc3c2)S(=O)(=O)c2ccccc21 | - | IC50 | N-acetyltransferase | - | Mycobacterium smegmatis | - | >100 µM
Nc1ncnc2c1ncn2[C@@H]1O[C@H](COP(=O)(O)OP(=O)([O-])OC[C@H]2O[C@@H](N3C=CC4C(=C3)C(=O)NC4(O)c3ccncc3)[C@H](O)[C@@H]2O)[C@@H](O)[C@H]1OP(=O)(O)O | - | Ki | Dihydrofolate reductase | - | Mycobacterium tuberculosis | - | 0.001 µM
Cc1cn(C/C=C\CN2C(=O)c3cccc4cccc(c34)C2CO)c(=O)[nH]c1=O | absorbance | Ki | Thymidine monophosphate kinase | - | Mycobacterium tuberculosis | - | 6.2 µM